Results of unrelated studies side by side (data: NIAID ChemDB).

All rows: whole-cell or culture tests; species: HIV-2; cells: MT-4; measure: EC50

Blank or dashed fields: not listed here. ECn is the concentration giving n% inhibition of infection, replication or growth. Neighbouring rows are from separate reports.

smiles | strain or isolate | changes | method | conditions | value
O=C(CSc1nncnc1-c1ccccc1Cl)Nc1cccnc1Cl | ROD |  | MTT |  | >167 µM
CC1(C)C2=CC(=O)C(O)(c3ccccc3)C(=O)N2c2ccc(Cl)cc21 | ROD |  | cytopathic effect / MTT |  | >10 µM
Nc1nc2c(ncn2C2CC(CO)(CO)C2)c(=O)[nH]1 | ROD |  | cytopathic effect / MTT |  | >500 µM
CCc1nc([N+](=O)[O-])c(N2CCN(C(=O)CNCCCCCCn3c(=O)c(C)cn([C@H]4C[C@H](N=[N+]=[N-])[C@@H](CO)O4)c3=O)CC2)n1Cc1ccccc1 | ROD |  |  |  | >56 µg/mL
Nc1ncnc2c1ncn2C1CCC1 | ROD |  | cytopathic effect / MTT |  | >100 µM
Cc1cc(C)c(Oc2ccc([N+](=O)[O-])c(NC3CCN(Cc4ccc(S(C)(=O)=O)cc4)CC3)n2)c(C)c1 | ROD |  | MTT |  | >24 µM
CCCCCCCSc1nsc(NC(=O)Nc2ccccc2)n1 | ROD |  | cytopathic effect |  | 29.8 µM
COc1ccc(CN[C@@H](C(=O)N[C@H](C(=O)NCc2nc3ccccc3[nH]2)C(C)C)[C@H](O)[C@H](Cc2ccccc2)NC(=O)[C@@H](NC(=O)[C@@](C)(O)c2ccccc2)C(C)(C)C)cc1 | ROD |  | p24 |  | 0.77 µM
Cc1cc(C)c(Nc2ccc([N+](=O)[O-])c(NC3CCN(Cc4ccc(S(C)(=O)=O)cc4)CC3)n2)c(C)c1 | ROD |  | MTT |  | >21 µM
Fc1cccc(F)c1[C@H]1SCc2nc3ccccc3n21 | ROD |  | cytopathic effect |  | >38.1 µM
O=C(CSc1nncnc1-c1ccccc1Cl)Nc1ccccc1[N+](=O)[O-] | ROD |  | MTT |  | >63 µM
CCc1c(Sc2cccc3ccccc23)nc(SCC(=O)c2ccccc2)[nH]c1=O | ROD |  | cytopathic effect / MTT |  | >26.39 µM
CC(C)Nc1cccnc1N1CCN(C(=O)c2cc3cc(NS(C)(=O)=O)ccc3[nH]2)CC1 | ROD |  | cytopathic effect / MTT |  | >47.3 µM
CN(C(=O)[C@H](Cc1ccccc1)NC(=O)c1cccc(C(=O)Nc2ccc(Br)cc2)c1)c1ccc2scnc2c1 | ROD |  | MTT |  | >6.21 µM
Cc1cc(C)c(Nc2ccc([N+](=O)[O-])c(NC3CCN(Cc4ccc(C(N)=O)cc4)CC3)n2)c(C)c1 | ROD |  | MTT |  | >25 µM
CC(C)[C@H](NC(=O)OCc1ccccc1)C(=O)N[C@@H](Cc1ccccc1)[C@@H](O)[C@@H](NCc1ccc(Cl)cc1)C(=O)N[C@H](C(=O)NCc1nc2ccccc2[nH]1)C(C)C | ROD |  | p24 |  | 0.415 µM
N#Cc1ccc(Nc2nc(Oc3c(Cl)cc(Cl)cc3Cl)ncc2[N+](=O)[O-])cc1 | ROD |  | MTT |  | >25 µM
Nc1nc(=O)n([C@@H]2CS[C@H](CO)O2)cc1F | ZY |  | cytopathic effect |  | 1.5 µM
C1CNCCNCCCN(CCCN2CCCNCCNCCCNCC2)CCNC1 | ROD |  | cytopathic effect / MTT |  | 0.75 µM
O=c1[nH]c2c(c(=O)[nH]1)C(c1ccc(I)cc1)c1c([nH]c(=O)[nH]c1=O)O2 | EHO |  | cytopathic effect |  | >276 µM
Nc1nc2c(ncn2[C@@H]2C[C@H](CO)[C@H]2CO)c(=O)[nH]1 | ROD |  | cytopathic effect / MTT |  | 17 µM
CCc1c(Sc2cccc3ccccc23)nc(SCC(=O)c2ccc(F)cc2)[nH]c1=O | ROD |  | cytopathic effect / MTT |  | >23.11 µM
COc1ccc(CN[C@@H](C(=O)N[C@H](C(=O)NCc2ccc(OC)cc2O)C(C)C)[C@H](O)[C@H](Cc2ccccc2)NC(=O)[C@@H](NC(=O)OCc2ccccc2)C(C)C)cc1 | EHO |  | cytopathic effect / MTT |  | 0.06 µM
Cc1cn([C@@H]2O[C@H](CO)C3(OS(=O)(=O)C=C3N)[C@H]2O)c(=O)[nH]c1=O | ROD |  | cytopathic effect / trypan blue |  | >300 µM
Cc1ccnc2c1NC(=O)c1cccnc1N2C1CC1 | ROD |  | cytopathic effect |  | >97.6 µM
CC(C)Nc1cccnc1N1CCN(C(=O)c2cc3cc(NS(C)(=O)=O)ccc3[nH]2)CC1 | ROD |  | MTT |  | >127 µM
Cc1cn([C@H]2C[C@H](N=[N+]=[N-])[C@@H](CSCCC(=O)O)O2)c(=O)[nH]c1=O | ROD |  |  |  | 0.29 µg/mL
N#Cc1ccc(Nc2nc(Oc3c(Cl)cccc3Cl)ncc2[N+](=O)[O-])cc1 | ROD |  | MTT |  | >206 µM
CCOCn1c(Cc2ccccc2)c(C(C)C)c(=O)[nH]c1=O | EHO | RT-S102L E219D | cytopathic effect / MTT |  | 127.8 µM
Cc1cc(C)c(Oc2ccc(N)c(NC3CCN(Cc4ccc(S(N)(=O)=O)cc4)CC3)n2)c(C)c1 | ROD |  | MTT |  | >26 µM
Cc1cn([C@H]2C[C@H](N=[N+]=[N-])[C@@H](CO)O2)c(=O)[nH]c1=O | ROD |  | MTT |  | 0.004 µM
Cc1cn([C@@H]2O[C@H](CO[Si](C)(C)C(C)(C)C)C3(OS(=O)(=O)C=C3N)[C@H]2O[Si](C)(C)C(C)(C)C)c(=O)n(C)c1=O | ROD |  | cytopathic effect / trypan blue |  | >200 µM
CCc1cc(NCc2nc3c(Cl)ccc(Cl)c3o2)c(=O)[nH]c1C | ROD |  | cytopathic effect / MTT |  | >71 µM
Nc1ncnc2c1ncn2CCOCP(=O)(O)O | ROD |  | cytopathic effect |  | 14 µM
Cc1cn([C@@H]2C[C@@H](N=[N+]=[N-])[C@H](COC(=O)OC[C@H]3O[C@@H](n4cc(C)c(=O)[nH]c4=O)C[C@@H]3N=[N+]=[N-])O2)c(=O)[nH]c1=O | ROD |  | cytopathic effect / MTT |  | 0.0017 µM
Cc1cc(C#N)cc(C)c1Oc1ccc([N+](=O)[O-])c(NC2CCN(Cc3ccc(S(N)(=O)=O)cc3)CC2)n1 | ROD |  | MTT |  | >27 µM
Cc1cn([C@H]2C=C[C@@H](CO)O2)c(=O)[nH]c1=O | ROD |  | cytopathic effect / MTT |  | 0.08 µM
COc1nc(=O)[nH]c2c1C(c1ccc(Cl)cc1)c1c(OC)nc(=O)[nH]c1O2 | EHO |  | cytopathic effect |  | >347 µM
Cc1cc(C=O)cc(C)c1Oc1ncc(NC(=O)C(F)(F)F)c(Nc2ccc(C#N)cc2)n1 | ROD |  | MTT |  | >216 µM
Cc1cc(C#N)cc(C)c1Oc1ccc(N)c(NC2CCN(Cc3ccc(S(C)(=O)=O)cc3)CC2)n1 | ROD |  | MTT |  | >28 µM
Cc1cn([C@@H]2O[C@H](CO[Si](C)(C)C(C)(C)C)C3(OS(=O)(=O)C=C3N)[C@H]2O)c(=O)[nH]c1=O | ROD |  | cytopathic effect / trypan blue |  | >40 µM
C1CNCCNCC(CCOCCOCCC2CNCCNCCCNCCNC2)CNCCNC1 | ROD |  | cytopathic effect / MTT | 5 d | 34 µM
Cc1cc(Br)cc(C)c1Oc1ncc(NC(=O)C(F)(F)F)c(Nc2ccc(C#N)cc2)n1 | ROD |  | MTT |  | 36 µM
CNc1nc(Nc2c(C)cc(C)cc2C)nc(NC2CCN(Cc3ccc(C(N)=O)cc3)CC2)n1 | ROD |  | MTT |  | >27.39 µM
C1CNCCNCCCN[C@H]([C@@H]2CNCCCNCCNCCCN2)CNC1 | ROD |  | cytopathic effect / MTT |  | 0.29 µM
C/C(=N\NC(=S)NNC(=S)c1ccc(Cl)cc1)C12CC3CC(CC(C3)C1)C2 | ROD |  |  |  | >10 µM
COc1ccc(CN[C@@H](C(=O)N[C@H](C(=O)NCc2nc3ccccc3[nH]2)C(C)C)[C@H](O)[C@H](Cc2ccccc2)NC(=O)[C@@H](NC(=O)CCc2ccc(O)cc2)C(C)(C)C)cc1 | EHO |  | p24 |  | 0.38 µM
Cc1cc(C#N)cc(C)c1Oc1ccc([N+](=O)[O-])c(NC2CCN(Cc3ccc(S(C)(=O)=O)cc3)CC2)n1 | ROD |  | MTT |  | >146 µM
Cc1cn([C@@H]2C=C[C@H](COC(=O)NCCCCNC(=O)OC[C@H]3O[C@@H](n4cc(C)c(=O)[nH]c4=O)C[C@@H]3N=[N+]=[N-])O2)c(=O)[nH]c1=O | ROD |  | cytopathic effect / MTT |  | 19 µM

For reference, 4 entries again:

{"smiles": "N#Cc1ccc(Nc2nc(Oc3c(Cl)cccc3Cl)ncc2[N+](=O)[O-])cc1", "strain or isolate": "ROD", "method": "MTT", "value": ">206 µM"}
{"smiles": "CN(C(=O)[C@H](Cc1ccccc1)NC(=O)c1cccc(C(=O)Nc2ccc(Br)cc2)c1)c1ccc2scnc2c1", "strain or isolate": "ROD", "method": "MTT", "value": ">6.21 µM"}
{"smiles": "CC1(C)C2=CC(=O)C(O)(c3ccccc3)C(=O)N2c2ccc(Cl)cc21", "strain or isolate": "ROD", "method": "cytopathic effect / MTT", "value": ">10 µM"}
{"smiles": "Cc1cn([C@@H]2O[C@H](CO[Si](C)(C)C(C)(C)C)C3(OS(=O)(=O)C=C3N)[C@H]2O)c(=O)[nH]c1=O", "strain or isolate": "ROD", "method": "cytopathic effect / trypan blue", "value": ">40 µM"}